Results of unrelated studies side by side (data: NIAID ChemDB).

All rows: whole-cell or culture tests; species: HIV-1; read-out: EC50

Rows are shuffled and stem from different studies. ECn: concentration that inhibits the pathogen or its effect by n%.

CCOC(=O)c1c([N+](=O)[O-])c(-c2ccccc2)n(COCCOC(C)=O)c1-c1ccccc1 ; read by: cytopathic effect / MTT ; cells: MT-4 ; value: >96 µM
COc1cc(Cc2c(C(C)C)c(=O)[nH]c(=O)n2COCCOc2ccccc2)cc(OC)c1 ; read by: MTT ; cells: MT-4 ; strain or isolate: IIIB ; value: 0.35 µM
COC(=O)c1cnn2c1nnc1ccccc12 ; read by: cytopathic effect / MTT ; cells: MT-4 ; strain or isolate: IIIB ; value: >200 µM
CCOC(=O)c1c(Br)c(-c2ccccc2)n(COCCO)c1-c1ccccc1 ; read by: cytopathic effect / MTT ; cells: MT-4 ; value: >64 µM
Clc1ccc2nnc3c(Br)cnn3c2c1 ; read by: cytopathic effect / MTT ; cells: MT-4 ; strain or isolate: IIIB ; value: >200 µM
Cc1ccc(N2C(=O)/C(=C/c3ccc(-c4ccc(Cl)c(C(=O)O)c4)o3)SC2=S)c(C)c1 ; read by: p24 ; cells: MT-2 ; strain or isolate: IIIB ; value: 0.298 µM
CCOC(=O)c1c(Cl)c(-c2ccccc2)n(COCCOC(C)=O)c1C ; read by: cytopathic effect / MTT ; cells: MT-4 ; value: >82 µM
[O-][n+]1nc2c(-c3ccccc3)cnn2c2ccccc21 ; read by: cytopathic effect / MTT ; cells: MT-4 ; strain or isolate: IIIB ; value: >200 µM
C/C=C\CN1C(=O)c2cccn2S(=O)(=O)c2ccc(Cl)cc21 ; read by: cytopathic effect / MTT ; cells: MT-4 ; value: >300 µM
Nc1ccn([C@@H]2CS[C@H](CO)O2)c(=O)n1 ; read by: luciferase ; cells: TZM-bl ; strain or isolate: NL4-3 ; changes: M184V ; value: 3.596 µM
COc1ccc(N2C(=O)/C(=C/c3ccc(-c4ccc(Cl)c(C(=O)O)c4)o3)SC2=S)cc1 ; read by: cytopathic effect ; cells: MT-2 ; strain or isolate: IIIB ; value: 1.887 µM
CC1COc2c(N3CCN(C)CC3)c(F)cc3c(=O)c(C(=O)O)cn1c23 ; read by: cytopathic effect / MTT ; cells: MT-4 ; strain or isolate: IIIB ; value: >200 µM
Cc1cn([C@@H]2C[C@@H](N=[N+]=[N-])[C@H](COP(=O)(CN=[N+]=[N-])OC[C@H]3O[C@@H](n4cc(C)c(=O)[nH]c4=O)C[C@@H]3N=[N+]=[N-])O2)c(=O)[nH]c1=O ; read by: p24 / ELISA / antigen ; cells: CEM-SS ; strain or isolate: BRU ; value: 0.18 µM
CC(=O)OCCOCn1c(-c2ccccc2)cc([N+](=O)[O-])c1-c1ccccc1 ; read by: cytopathic effect / MTT ; cells: MT-4 ; value: >37 µM
CCc1c(Cc2cc(OC)cc(OC)c2)[nH]c(=S)[nH]c1=O ; read by: MTT ; cells: MT-4 ; strain or isolate: N119 ; changes: Y181C ; value: >100 µM
CC(C)C1=C2[C@H]3CC[C@@H]4[C@@]5(C)CC[C@H](OC(=O)[C@H]6C[C@@H](C(=O)O)C6(C)C)C(C)(C)[C@@H]5CC[C@@]4(C)[C@]3(C)CC[C@@]2(CCNC[C@H](CO)NC(=O)c2ccc(Cl)cc2)CC1=O ; read by: p24 / ELISA ; cells: MT-2 ; strain or isolate: 92HT599 ; value: <1 µM
CC(C)=CCN1C(=O)c2cccn2S(=O)(=O)c2ccc(Cl)cc21 ; read by: cytopathic effect / MTT ; cells: MT-4 ; value: >300 µM
Cc1cn([C@H]2C[C@H](N=[N+]=[N-])[C@@H](CO)O2)c(=O)[nH]c1=O ; read by: MTT ; cells: C8166 ; value: 0.004 µg/mL
COc1ccc(C(=O)NCC[C@@]23CC[C@]4(C)[C@H](CC[C@@H]5[C@@]6(C)CC[C@H](OC(=O)[C@H]7C[C@@H](C(=O)O)C7(C)C)C(C)(C)[C@@H]6CC[C@]54C)C2=C(C(C)C)C(=O)C3)cc1 ; read by: p24 / ELISA ; cells: MT-2 ; strain or isolate: 92HT599 ; value: <1 µM
O=C(O)c1cc(-c2ccc(/C=C3\SC(=S)N(c4cccc([N+](=O)[O-])c4)C3=O)o2)ccc1Cl ; read by: cytopathic effect ; cells: MT-2 ; strain or isolate: IIIB ; value: 1.046 µM
COCCCn1ccn2cc(C(=O)NCc3ccc(F)cc3F)c(=O)c(O)c2c1=O ; read by: luciferase ; cells: HEK 293 ; changes: G118R ; value: 0.0859 µM
C=CCN1C(=O)c2cccn2S(=O)(=O)c2ccc(Cl)cc21 ; read by: cytopathic effect / MTT ; cells: MT-4 ; value: >32 µM
Cc1cn([C@@H]2C[C@@H](N=[N+]=[N-])[C@H](COP(=O)(OC[C@H]3O[C@@H](n4cc(C)c(=O)[nH]c4=O)C[C@@H]3N=[N+]=[N-])c3ccccc3)O2)c(=O)[nH]c1=O ; read by: p24 / ELISA / antigen ; cells: CEM-SS ; strain or isolate: BRU ; value: 10 µM
COc1cc(N=Nc2cc(S(=O)(=O)O)cc3cc(S(=O)(=O)O)cc(O)c23)c(C)cc1Nc1nc(Nc2ccccc2)nc(Nc2ccccc2)n1 ; read by: p24 ; cells: MT-2 ; strain or isolate: IIIB ; value: 11.39 µM
CC(C)C1=C2[C@H]3CC[C@@H]4[C@@]5(C)CC[C@H](OC(=O)[C@H]6C[C@@H](C(=O)O)C6(C)C)C(C)(C)[C@@H]5CC[C@@]4(C)[C@]3(C)CC[C@@]2([C@@H](O)CNC(=O)C(F)(F)NC(=O)c2ccc(Cl)cc2)CC1=O ; read by: p24 / ELISA ; cells: MT-2 ; strain or isolate: 92HT599 ; value: <1 µM
CCc1c(Cc2cc(OC)cc(OC)c2)[nH]c(=O)[nH]c1=O ; read by: MTT ; cells: MT-4 ; strain or isolate: A17 ; changes: K103N + Y181C ; value: >100 µM
O=C(NCc1ccc(F)cc1F)c1cn2c(c(O)c1=O)C(=O)N(CCCCO)CC2 ; read by: luciferase ; cells: HEK 293 ; changes: G118R ; value: 0.9638 µM
COc1ccc(S(=O)(=O)O)cc1N=Nc1c(S(=O)(=O)O)cc2cc(Nc3nc(Nc4ccccc4)nc(Nc4cc(C)c(N=Nc5cc(S(=O)(=O)O)cc6cc(S(=O)(=O)O)cc(O)c56)cc4OC)n3)ccc2c1O ; read by: cytopathic effect / XTT ; cells: MT-2 ; strain or isolate: IIIB ; value: 3.71 µM
[O-][n+]1nc2c(Br)cnn2c2ccc(Cl)cc21 ; read by: cytopathic effect / MTT ; cells: MT-4 ; strain or isolate: IIIB ; value: >200 µM
Cc1cn([C@@H]2C[C@@H](N=[N+]=[N-])[C@H](COP(=O)(CI)OC[C@H]3O[C@@H](n4cc(C)c(=O)[nH]c4=O)C[C@@H]3N=[N+]=[N-])O2)c(=O)[nH]c1=O ; read by: p24 / ELISA / antigen ; cells: CEM-SS ; strain or isolate: BRU ; value: 11 µM
O=C(NCc1ccc(F)cc1F)c1cn2c(c(O)c1=O)C(=O)NCC2 ; read by: luciferase ; cells: HEK 293 ; value: 0.0442 µM
C/C(=C/[C@H]1C[C@](C)(O)C2[C@@H](C[C@@]3(C)[C@@H]4CC=C5[C@@H](C[C@H](O)[C@@H](O)C5(C)C)[C@]4(C)C(=O)C[C@]23C)O1)CO ; read by: cytopathic effect / MTT ; cells: C8166 ; value: 43.2 µM
[N-]=[N+]=Nc1c(-c2ccccc2)c(-c2ccccc2)n(COCCO)c1-c1ccccc1 ; read by: cytopathic effect / MTT ; cells: MT-4 ; value: >65 µM
Cc1cn([C@H]2C[C@@H](OCP(=O)(O)O)CO2)c(=O)[nH]c1=O ; read by: MTT / absorbance ; cells: MT-4 ; strain or isolate: IIIB ; value: 27.07 µM
CCCN1C(=O)c2cccn2S(=O)(=O)c2ccc(Cl)cc21 ; read by: cytopathic effect / MTT ; cells: MT-4 ; value: >300 µM
CCc1c(Cc2cc(OC)cc(OC)c2)n(COCCOc2ccccc2)c(=O)[nH]c1=O ; read by: MTT ; cells: MT-4 ; strain or isolate: N119 ; changes: Y181C ; value: >41 µM
O=[N+]([O-])c1cnn2c1nnc1ccc(Cl)cc12 ; read by: cytopathic effect / MTT ; cells: MT-4 ; strain or isolate: IIIB ; value: >1.7 µM
CC(=O)OCCOCn1c(-c2ccccc2)c(N)c(C#N)c1-c1ccccc1 ; read by: cytopathic effect / MTT ; cells: MT-4 ; value: >300 µM
Cc1cn([C@H]2C[C@@H](OCP(=O)(O)O)CO2)c(=O)nc1N ; read by: MTT / absorbance ; cells: MT-4 ; strain or isolate: IIIB ; value: >410 µM
C[C@H](CCC=C(CO)CO)[C@H]1CC[C@@]2(C)C3CC=C4[C@@H](CC[C@H](O)C4(C)C)[C@]3(C)C(=O)C[C@]12C ; read by: cytopathic effect / MTT ; cells: C8166 ; value: 13.2 µM
CC(C)C1=C2[C@H]3CC[C@@H]4[C@@]5(C)CC[C@H](OC(=O)[C@H]6C[C@@H](C(=O)O)C6(C)C)C(C)(C)[C@@H]5CC[C@@]4(C)[C@]3(C)CC[C@@]2(CCNC(=O)c2ccccc2)CC1=O ; read by: p24 / ELISA ; cells: MT-2 ; strain or isolate: 92HT599 ; value: <1 µM
O=C(O)c1cccc(-c2ccc(/C=C3\SC(=S)N(Cc4ccco4)C3=O)o2)c1 ; read by: cytopathic effect ; cells: MT-2 ; strain or isolate: IIIB ; value: 42.08 µM
O=C(NCc1ccc(F)cc1F)c1cn2ccn(CCCCO)c(=O)c2c(O)c1=O ; read by: luciferase ; cells: HEK 293 ; changes: G118R ; value: 0.0754 µM
CCCOC(=O)[C@H](Cc1ccccc1)NP(=O)(CO[C@H]1CO[C@@H](n2cc(C)c(N)nc2=O)C1)N[C@@H](Cc1ccccc1)C(=O)OCCC ; read by: MTT / absorbance ; cells: MT-4 ; strain or isolate: IIIB ; value: ≥23.4 µM
COc1cc(Cc2[nH]c(=O)[nH]c(=O)c2C(C)C)cc(OC)c1 ; read by: MTT ; cells: MT-4 ; strain or isolate: IIIB ; value: >100 µM
O=C(NCc1ccc(F)cc1F)c1cn2ccn(CCCCCO)c(=O)c2c(O)c1=O ; read by: luciferase ; cells: HEK 293 ; changes: G118R ; value: 0.3291 µM
C=C(C)[C@@]1(OC(=O)c2ccccc2)[C@H](OC(C)=O)[C@@H]2[C@H](OC(C)=O)[C@@]3(C)O[C@@]4([C@@H]3OC(C)=O)[C@@H](OC(C)=O)[C@@H](C)C[C@H]4[C@@]2(O)[C@H](C)[C@@H]1OC(C)=O ; read by: MTT ; cells: C8166 ; value: 78.8 µg/mL
CC(C)C1=C2[C@H]3CC[C@@H]4[C@@]5(C)CC[C@H](OC(=O)[C@H]6C[C@@H](C(=O)O)C6(C)C)C(C)(C)[C@@H]5CC[C@@]4(C)[C@]3(C)CC[C@@]2(CC(=O)NCC(CCN)NC(=O)c2ccc(Cl)cc2)CC1=O ; read by: p24 / ELISA ; cells: MT-2 ; strain or isolate: 92HT599 ; value: <1 µM
Cc1cn([C@@H]2C[C@@H](N=[N+]=[N-])[C@H](COP(=O)(CF)OC[C@H]3O[C@@H](n4cc(C)c(=O)[nH]c4=O)C[C@@H]3N=[N+]=[N-])O2)c(=O)[nH]c1=O ; read by: p24 / ELISA / antigen ; cells: CEM-SS ; strain or isolate: BRU ; value: 0.015 µM
CC(C)C1=C2[C@H]3CC[C@@H]4[C@@]5(C)CC[C@H](OC(=O)[C@H]6C[C@@H](C(=O)O)C6(C)C)C(C)(C)[C@@H]5CC[C@@]4(C)[C@]3(C)CC[C@@]2(CCNC(=O)CN2CCCCC2)CC1=O ; read by: p24 / ELISA ; cells: MT-2 ; strain or isolate: 92HT599 ; value: <1 µM
O=c1[nH]cnc2c1ncn2[C@H]1C[C@@H](OCP(=O)(O)O)CO1 ; read by: MTT / absorbance ; cells: MT-4 ; strain or isolate: IIIB ; value: >395 µM
CCOCn1c(Cc2cc(OC)cc(OC)c2)c(CC)c(=O)[nH]c1=O ; read by: MTT ; cells: MT-4 ; strain or isolate: IIIB ; changes: Efavirenz-resistant (K103R + V179D + P225H) ; value: >100 µM
N#Cc1cnn2c1nnc1cc([N+](=O)[O-])ccc12 ; read by: cytopathic effect / MTT ; cells: MT-4 ; strain or isolate: IIIB ; value: >1.5 µM
CCCOC(=O)[C@H](Cc1ccccc1)NP(=O)(CO[C@H]1CO[C@@H](n2cnc3c(N)nc(N)nc32)C1)N[C@@H](Cc1ccccc1)C(=O)OCCC ; read by: MTT / absorbance ; cells: MT-4 ; strain or isolate: IIIB ; value: 0.048 µM